Anti-infective test results gathered from many reports (values: NIAID ChemDB through PubChem).

Shared fields: whole-cell or culture tests; organism: HIV-1; cells: MT-4; read-out: EC50

ECn is the concentration giving n% inhibition of infection, replication or growth. An empty or dashed field is not shown. Conditions beyond the fields shown may differ between rows.

SMILES	changes	strain or isolate	read by	result
Cc1cc(C)nc(N2C(=O)CSC2c2c(Cl)cccc2Cl)n1	-	IIIB	cytopathic effect	0.017 µM
O=C1CCSC(c2c(Cl)cccc2Cl)N1Cc1ccco1	RT	IIIB	cytopathic effect	5.65 µM
O=C(O)P(=O)(O)O	-	IIIB	cytopathic effect / MTT	12.6 µg/mL
CCCCCCCSc1nsc(NC(=O)Nc2ccccc2)n1	DS-resistant	NL4-3	cytopathic effect	19.4 µM
Nc1ccn([C@H]2CS[C@@H](CO)S2)c(=O)n1	-	-	-	9.3 µg/mL
CC(C)(C)NC(=O)[C@@H]1CN(Cc2cc3cccnc3s2)CCN1C[C@@H](O)C[C@@H](Cc1ccccc1)C(=O)N[C@H]1c2ccccc2C[C@H]1O	-	IIIB	p24	<0.0125 µM
O=C1CSC(c2c(Cl)cccc2Cl)N1Cc1ccco1	RT	IIIB	cytopathic effect	0.204 µM
Fc1cccc(F)c1C1SCc2nc3ccccc3n21	-	IIIB	cytopathic effect	0.352 µM
CCC(Cc1ccccc1)c1cc(O)c(C(c2cccc(NS(=O)(=O)c3ccc(OC)cc3)c2)C2CC2)c(=O)o1	-	IIIB	p24	1.8 µM
NC(=O)c1[nH]c2ccc(Cl)cc2c1Sc1ccccc1	-	IIIB	p24 / ELISA	<0.2 µM
CN(C)C(=O)Oc1nsnc1-c1ccccc1	RT-Y181C	IIIB-R (RT-Y181C)	cytopathic effect / MTT	>210 µM
COc1ccc2c(O)c(C(c3cccc(NS(=O)(=O)c4ccc(F)cc4)c3)C3CC3)c(=O)oc2c1	-	IIIB	p24	>>10 µM
Cc1cn([C@H]2C[C@H](N=[N+]=[N-])[C@@H](CO)O2)c(=O)[nH]c1=O	-	IIIB Laboratory strain	cytopathic effect	0.007 µM
Cc1cccc(N2C(=O)CSC23CCCCC3)n1	-	IIIB	cytopathic effect	362 µM
COC(=O)N[C@H](C(=O)N[C@@H](Cc1ccccc1)[C@@H](O)CN(Cc1ccc(-c2ccccn2)cc1)NC(=O)[C@@H](NC(=O)OC)C(C)(C)C)C(C)(C)C	L10F V32I M46I I54M A71V I84V	NL4-3	p24 / luminescence	0.42 µM
Cc1cn([C@H]2C=C[C@@H](COP(=O)(O)N[C@@H](CC(=O)O)C(=O)O)O2)c(=O)[nH]c1=O	-	IIIB	MTT	0.36 µM
C=CCNC(=O)C1C(=O)N(O)C(=O)c2ccccc21	-	-	MTT	>129 µM
Nc1ccn([C@]2(c3ccccc3)C[C@@H]2COCP(=O)(O)O)c(=O)n1	-	-	cytopathic effect	48.2 µM
Cc1ccnc(N2C(=O)CSC2c2c(F)cccc2Cl)n1	-	IIIB	cytopathic effect	0.074 µM
Nc1ccn([C@@H]2O[C@H](CO)C[C@@H]2F)c(=O)n1	-	IIIB	cytopathic effect / MTT	0.53 µg/mL
O=C(NCCCCl)C1C(=O)N(O)C(=O)c2ccccc21	-	-	MTT	>0.51 µM
COCCOCCC(CCOCCOC)c1cc(O)c(C(c2cccc(NS(=O)(=O)c3cn(C)cn3)c2)C2CC2)c(=O)o1	-	IIIB	p24	>>3 µM
CN(C)C(=O)c1[nH]c2ccccc2c1Sc1ccccc1	-	IIIB	p24 / ELISA	>3 µM
CCCCN(CC)C(=O)Oc1nsnc1-c1c(Cl)cccc1Cl	RT-Y181C	IIIB-R (RT-Y181C)	cytopathic effect / MTT	>44 µM
CSc1ncccc1CN1CCN(C[C@@H](O)C[C@@H](Cc2ccccc2)C(=O)N[C@H]2c3ccccc3C[C@H]2O)[C@H](C(=O)NC(C)(C)C)C1	-	IIIB	p24	<0.0156 µM
Cc1cn([C@H]2C[C@H](N=[N+]=[N-])[C@@H](COC(=O)c3ccc[n+](C)c3)O2)c(=O)[nH]c1=O	-	IIIB Laboratory strain	cytopathic effect	0.013 µM
CC(C)=CCN1Cc2cc(Cl)cc3[nH]c(=S)n(c23)C[C@@H]1C	RT-K70R K101E	-	-	<3 µM
CC(C)(C)NC(=O)[C@@H]1C[C@@H]2CCCC[C@@H]2CN1C[C@@H](O)[C@H](Cc1ccccc1)NC(=O)[C@H](CC(N)=O)NC(=O)c1ccc2ccccc2n1	-	IIIB	cytopathic effect / MTT	<0.0005 µg/mL
COC(=O)[C@@H](NC(=O)Cc1ccccc1)[C@@H]1N[C@@H](C(=O)NCCNC(=O)[C@@H]2N[C@@H]([C@H](NC(=O)Cc3ccccc3)C(=O)OC)SC2(C)C)C(C)(C)S1	-	RF	p24	>100 µM
Cc1nn(C)c2ncc(CN3CCN(C[C@@H](O)C[C@@H](Cc4ccccc4)C(=O)N[C@H]4c5ccccc5C[C@H]4O)[C@H](C(=O)NC(C)(C)C)C3)cc12	-	IIIB	p24	<0.006 µM
Cc1cc(C#N)cc(C)c1Oc1nc(Nc2ccc(C#N)cc2)nc(N)c1Br	K103N	IIIB	MTT	0.003 µM
O=C1CSC(c2c(F)cccc2Cl)N1c1cccc(C(F)(F)F)c1	-	IIIB	cytopathic effect	7.05 µM
Cc1cc(/C=C/C#N)cc(C)c1Oc1ccnc(S(=O)(=O)CC(=O)Nc2ccc(F)cc2)n1	F227L V106A	-	MTT	2.198 µM
CC(C)(C)NC(=O)[C@@H]1CN(Cc2c[nH]c3ccccc23)CCN1C[C@@H](O)C[C@@H](Cc1ccccc1)C(=O)N[C@H]1c2ccccc2C[C@H]1O	-	IIIB	p24	<0.05 µM
CCC(Cc1ccccc1)c1cc(O)c(C(c2cccc(NS(=O)(=O)c3ccc(Cl)cc3)c2)C2CC2)c(=O)o1	-	IIIB	p24	2 µM
NC(=O)c1[nH]c2ccc(Cl)cc2c1S(=O)c1ccccc1	-	IIIB	p24 / ELISA	<0.2 µM
CCCC[C@@H]1[C@H](OC(=O)N[C@@H](Cc2ccccc2)[C@H](O)CN2C[C@H]3CCCC[C@H]3C[C@H]2C(=O)NC(C)(C)C)CCS1(=O)=O	-	IIIB	p24	<0.8 µM
Nc1ccn([C@H]2CC[C@@H](CO)O2)c(=O)n1	ddI-1-resistant	IIIB	-	0.75 µM
CN(C)C(=O)Oc1nsnc1-c1ccc(Cl)c(Cl)c1	-	IIIB	cytopathic effect / MTT	>315 µM
O=C(NCc1ccc(F)cc1)C1C(=O)N(O)C(=O)c2cc(F)ccc21	-	-	MTT	>0.72 µM
Cc1cn([C@H]2C[C@H](N=[N+]=[N-])[C@@H](CO)O2)c(=O)[nH]c1=O	-	-	-	0.002 µg/mL
CC[C@@H]1[C@H](OC(=O)N[C@@H](Cc2ccccc2)[C@H](O)CN2C[C@H]3CCCC[C@H]3C[C@H]2C(=O)NC(C)(C)C)CCS1(=O)=O	-	IIIB	p24	<0.8 µM
Nc1ccn([C@@H]2CS[C@@H](CO)S2)c(=O)n1	-	-	-	>100 µg/mL
O=C(NC1CCCC1)C1C(=O)N(O)C(=O)c2ccccc21	-	-	MTT	27.56 µM
COc1ccc2c(O)c(C(c3cccc(NS(=O)(=O)c4cccc5cccnc45)c3)C3CC3)c(=O)oc2c1	-	IIIB	p24	>>10 µM
CC(C)(C)OC(=O)[C@@H]1CCCN1C[C@@H](O)[C@H](Cc1ccccc1)NC(=O)[C@H](CC(N)=O)NC(=O)OCc1ccccc1	-	IIIB	cytopathic effect / MTT	1.7 µg/mL
CCCCCCN(C)C(=O)Oc1nsnc1-c1c(Cl)cccc1Cl	RT-Y181C	IIIB-R (RT-Y181C)	cytopathic effect / MTT	>19 µM
CC1=NO[C@@]2(CC[C@H](C)N3C[C@H]2n2cc(C(=O)NCc4ccc(F)cc4F)c(=O)c(OCOC(=O)OCC4(COP(=O)(O)O)CCC4)c2C3=O)C1	-	IIIB	luminescence	0.002514 µM
CC(C)OP(=O)(COC[C@H]1C[C@@]1(c1ccccc1)n1ccc(N)nc1=O)OC(C)C	-	-	cytopathic effect	>100 µM
O=C(Oc1nsnc1-c1c(Cl)cccc1Cl)N1CCCCC1	RT-Y181C	IIIB-R (RT-Y181C)	cytopathic effect / MTT	>221 µM
O=C1CSC(c2c(Cl)cccc2Cl)N1c1cccc(C(F)(F)F)c1	-	IIIB	cytopathic effect	6.78 µM
Cc1cc(-c2ccc(C#N)cc2)cc(C)c1Oc1ccnc(S(=O)(=O)CC(=O)Nc2ccc(C#N)cc2)n1	-	IIIB	MTT	0.006 µM
COc1ccc(S(=O)(=O)N(CC(C)C)C[C@@H](O)[C@H](Cc2ccc(OC)c(Cl)c2)NC(=O)O[C@H]2CO[C@H]3OCC[C@H]32)cc1	L10F M46I I54V V82A	NL4-3	p24 / luminescence	0.0023 µM
Nc1nc2c(ncn2[C@@H]2CS[C@@H](CO)S2)c(=O)[nH]1	-	-	-	>100 µg/mL
CCCCN(C)C(=O)Oc1nsnc1-c1c(Cl)cccc1Cl	RT-Y181C	IIIB-R (RT-Y181C)	cytopathic effect / MTT	7.3 µM
C=C(C#N)c1cc(C)c(Oc2ccnc(Nc3ccc(CN4CCN(S(C)(=O)=O)CC4)cc3)n2)c(C)c1	L100I	IIIB	MTT	0.01 µM
Cc1cn([C@]2(c3ccccc3)C[C@@H]2CO)c(=O)[nH]c1=O	-	-	cytopathic effect	80.2 µM
CN(C)C(=O)Oc1nsnc1-c1ccccc1Cl	-	IIIB	cytopathic effect / MTT	0.44 µM
CC(C)(C)NC(=O)[C@@H]1C[C@@H]2CCCC[C@@H]2CN1C[C@@H](O)[C@H](Cc1ccccc1)NC(=O)O[C@H]1CCS(=O)(=O)C1	-	IIIB	p24	<0.364 µM
OC[C@@H]1SC[C@@H](n2cnc3c(Cl)ncnc32)S1	-	-	-	>10 µg/mL
CC(C)(C)NC(=O)[C@@H]1CN(Cc2cc3cccnc3o2)CCN1C[C@@H](O)C[C@@H](Cc1ccccc1)C(=O)N[C@H]1c2ccccc2C[C@H]1O	-	IIIB	p24	<0.05 µM
CC1=NO[C@@]2(CC[C@H](C)N3C[C@H]2n2cc(C(=O)NCc4ccc(F)cc4F)c(=O)c(OCOC(=O)OCCC(C)(C)c4c(CC(=O)O)cc(C)cc4OP(=O)(O)O)c2C3=O)C1	-	IIIB	luminescence	0.001432 µM
CC(C)(C)NC(=O)[C@@H]1C[C@@H]2CCC[C@@H]2CN1C[C@@H](O)[C@H](Cc1ccccc1)NC(=O)O[C@H]1CCOC1	-	IIIB	p24	<0.4 µM
COc1cc(C)nc(N2C(=O)CSC2c2c(F)cccc2Cl)n1	-	IIIB	cytopathic effect	0.056 µM
CCN(CC)C(=O)Oc1nsnc1-c1c(Cl)cccc1Cl	-	IIIB	cytopathic effect / MTT	0.25 µM
C[C@H](CCC(=O)NCCS(=O)(=O)O)[C@H]1CC[C@H]2[C@@H]3CC[C@@H]4C[C@H](O)CC[C@]4(C)C3CC[C@]12C	-	IIIB	cytopathic effect / MTT	102 µg/mL
Cc1cn([C@H]2C[C@H](N=[N+]=[N-])[C@@H](CO)O2)c(=O)[nH]c1=O	-	NL4-3	MTT	0.02 µM
Cc1cn([C@H]2C=C[C@@H](COP(=O)(O)O)O2)c(=O)[nH]c1=O	-	IIIB	MTT	0.39 µM
CC(C)=CCN1Cc2cc(Cl)cc3[nH]c(=S)n(c23)C[C@@H]1C	-	IIIB	p24 / ELISA	<0.4 µM
OC[C@@H]1SC[C@H](n2cnc3c(Cl)ncnc32)S1	-	-	-	>10 µg/mL
COP(=O)(O)C[C@H](NP(=O)(O)OC[C@@H]1C=C[C@H](n2cc(C)c(=O)[nH]c2=O)O1)C(=O)O	-	IIIB	MTT	0.47 µM
CC(C(=O)O)C(C)C(=O)N[C@@H](Cc1ccccc1)[C@H](O)C(=O)N1CSC(C)(C)[C@H]1C(=O)NC(C)(C)C	-	-	-	225 µM
Cc1ccc(CN2C(=O)CSC2c2c(Cl)cccc2Cl)o1	RT	IIIB	cytopathic effect	2.13 µM
C[C@H]1[C@@H](OC(=O)N[C@@H](Cc2ccccc2)[C@H](O)CN2C[C@H]3CCC[C@H]3C[C@H]2C(=O)NC(C)(C)C)CCS1(=O)=O	-	IIIB	p24	<0.1 µM
Cc1cc(=O)[nH]c(N2C(=O)CSC2c2c(Cl)cccc2Cl)n1	-	IIIB	cytopathic effect	32.84 µM
CC1(C)S[C@@H]2[C@H](NC(=O)Cc3ccccc3)C(=O)N2[C@H]1C(=O)NCCNC(=O)[C@@H]1N2C(=O)[C@@H](NC(=O)Cc3ccccc3)[C@H]2SC1(C)C	-	RF	syncytia	>100 µM
C[C@@H]1OCC[C@@H]1OC(=O)N[C@@H](Cc1ccccc1)[C@H](O)CN1C[C@H]2CCCC[C@H]2C[C@H]1C(=O)NC(C)(C)C	-	IIIB	p24	<0.4 µM

8 of the rows above, restated:

SMILES,changes,strain or isolate,read by,result
CCC(Cc1ccccc1)c1cc(O)c(C(c2cccc(NS(=O)(=O)c3ccc(OC)cc3)c2)C2CC2)c(=O)o1,-,IIIB,p24,1.8 µM
COc1ccc2c(O)c(C(c3cccc(NS(=O)(=O)c4cccc5cccnc45)c3)C3CC3)c(=O)oc2c1,-,IIIB,p24,>>10 µM
Cc1cc(=O)[nH]c(N2C(=O)CSC2c2c(Cl)cccc2Cl)n1,-,IIIB,cytopathic effect,32.84 µM
Cc1cc(-c2ccc(C#N)cc2)cc(C)c1Oc1ccnc(S(=O)(=O)CC(=O)Nc2ccc(C#N)cc2)n1,-,IIIB,MTT,0.006 µM
CC1=NO[C@@]2(CC[C@H](C)N3C[C@H]2n2cc(C(=O)NCc4ccc(F)cc4F)c(=O)c(OCOC(=O)OCCC(C)(C)c4c(CC(=O)O)cc(C)cc4OP(=O)(O)O)c2C3=O)C1,-,IIIB,luminescence,0.001432 µM
Cc1cc(C)nc(N2C(=O)CSC2c2c(Cl)cccc2Cl)n1,-,IIIB,cytopathic effect,0.017 µM
COc1ccc2c(O)c(C(c3cccc(NS(=O)(=O)c4ccc(F)cc4)c3)C3CC3)c(=O)oc2c1,-,IIIB,p24,>>10 µM
O=C(NCCCCl)C1C(=O)N(O)C(=O)c2ccccc21,-,-,MTT,>0.51 µM